Values from PubChem BioAssay AID1259414 (Drosophila RNAi Screening Center, 2018).
The deposit covers about 24,000 reagents; shown is a random part of those that have a named target and a result. In the full data, about 1,210 (5%) got an active call. 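Inactive calls also include excluded dsRNAs with several or no targets, genes unexpressed in JW18, and well A1, regardless of score.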 The numbers tell different reagents against one gene apart.

- Screen: 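Genome-wide screen for host control of endosymbiont load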 (primary screen)
- Cell system: Drosophila JW18 cells infected with Wolbachia
- Knock-down reagent: long dsRNA against Drosophila genes, 0.25 µg dsRNA per well of a 384-well plate
- Timing: 5 days
- Conditions: cells persistently infected with Wolbachia before knock-down; no added drug
- Measured: 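Automated imaging of bacterial rRNA staining divided by host cell count, reported as plate-normalised robust z-score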
- Scale: Wolbachia per cell robust z: higher = more Wolbachia per host cell than the plate typical
- Call rule: 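Hit when robust z is 1.5 or more, or -1.5 or less, in at least two of three replicates; excludes dsRNAs with several or no targets, genes not expressed in JW18 and well A1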

{"gene knocked down": "CG8531", "reagent no.": 1, "Wolbachia per cell robust z, rep 1": 0.489, "Wolbachia per cell robust z, rep 2": 0.0262, "Wolbachia per cell robust z, rep 3": 0.53, "activity call": "inactive"}
{"gene knocked down": "CG30099", "reagent no.": 1, "Wolbachia per cell robust z, rep 1": -0.965, "Wolbachia per cell robust z, rep 2": -1.5, "Wolbachia per cell robust z, rep 3": -1.46, "activity call": "inactive"}
{"gene knocked down": "CG30099", "reagent no.": 2, "Wolbachia per cell robust z, rep 1": -0.348, "Wolbachia per cell robust z, rep 2": -0.878, "Wolbachia per cell robust z, rep 3": 1, "activity call": "inactive"}
{"gene knocked down": "Sf3b6", "reagent no.": 1, "Wolbachia per cell robust z, rep 1": -0.816, "Wolbachia per cell robust z, rep 2": 0.00606, "Wolbachia per cell robust z, rep 3": -0.376, "activity call": "inactive"}
{"gene knocked down": "Sf3b6", "reagent no.": 2, "Wolbachia per cell robust z, rep 1": -0.265, "Wolbachia per cell robust z, rep 2": 3.59, "Wolbachia per cell robust z, rep 3": 4.01, "activity call": "active"}
{"gene knocked down": "CG13014", "reagent no.": 1, "Wolbachia per cell robust z, rep 1": 0.568, "Wolbachia per cell robust z, rep 2": -2.16, "Wolbachia per cell robust z, rep 3": -3.3, "activity call": "inactive"}
{"gene knocked down": "CG13014", "reagent no.": 2, "Wolbachia per cell robust z, rep 1": 0.859, "Wolbachia per cell robust z, rep 2": 0.172, "Wolbachia per cell robust z, rep 3": 0.401, "activity call": "inactive"}
{"gene knocked down": "CG13014", "reagent no.": 3, "Wolbachia per cell robust z, rep 1": 0.751, "Wolbachia per cell robust z, rep 2": 1.29, "Wolbachia per cell robust z, rep 3": 0.622, "activity call": "inactive"}
{"gene knocked down": "CG14000", "reagent no.": 1, "Wolbachia per cell robust z, rep 1": 1.36, "Wolbachia per cell robust z, rep 2": -0.675, "Wolbachia per cell robust z, rep 3": 0.545, "activity call": "inactive"}
{"gene knocked down": "not", "reagent no.": 1, "Wolbachia per cell robust z, rep 1": -1.98, "Wolbachia per cell robust z, rep 2": 0.801, "Wolbachia per cell robust z, rep 3": 0.463, "activity call": "inactive"}
{"gene knocked down": "Sdb", "reagent no.": 1, "Wolbachia per cell robust z, rep 1": -3.47, "Wolbachia per cell robust z, rep 2": -0.822, "Wolbachia per cell robust z, rep 3": 0.243, "activity call": "inactive"}
{"gene knocked down": "Sdb", "reagent no.": 2, "Wolbachia per cell robust z, rep 1": -1.32, "Wolbachia per cell robust z, rep 2": -4.03, "Wolbachia per cell robust z, rep 3": 0.589, "activity call": "inactive"}
{"gene knocked down": "Sdb", "reagent no.": 3, "Wolbachia per cell robust z, rep 1": -0.766, "Wolbachia per cell robust z, rep 2": -0.666, "Wolbachia per cell robust z, rep 3": -0.126, "activity call": "inactive"}

Targets above whose gene name begins with S or s (5):
{"gene knocked down": "Sf3b6", "reagent no.": 1, "Wolbachia per cell robust z, rep 1": -0.816, "Wolbachia per cell robust z, rep 2": 0.00606, "Wolbachia per cell robust z, rep 3": -0.376, "activity call": "inactive"}
{"gene knocked down": "Sf3b6", "reagent no.": 2, "Wolbachia per cell robust z, rep 1": -0.265, "Wolbachia per cell robust z, rep 2": 3.59, "Wolbachia per cell robust z, rep 3": 4.01, "activity call": "active"}
{"gene knocked down": "Sdb", "reagent no.": 1, "Wolbachia per cell robust z, rep 1": -3.47, "Wolbachia per cell robust z, rep 2": -0.822, "Wolbachia per cell robust z, rep 3": 0.243, "activity call": "inactive"}
{"gene knocked down": "Sdb", "reagent no.": 2, "Wolbachia per cell robust z, rep 1": -1.32, "Wolbachia per cell robust z, rep 2": -4.03, "Wolbachia per cell robust z, rep 3": 0.589, "activity call": "inactive"}
{"gene knocked down": "Sdb", "reagent no.": 3, "Wolbachia per cell robust z, rep 1": -0.766, "Wolbachia per cell robust z, rep 2": -0.666, "Wolbachia per cell robust z, rep 3": -0.126, "activity call": "inactive"}
